Results of unrelated studies side by side (data: NIAID ChemDB).

Common to all: whole-cell or culture tests; species: HIV-1; method: cytopathic effect / XTT; endpoint: EC50

Blank or dashed fields: not listed here.

NC(=O)C(NC(=O)c1ccccc1SSc1ccccc1C(=O)NC(C(N)=O)C(N)=O)C(N)=O ; strain: IIIB ; cells: CEM ; result: >100 µM
CCCc1cc(=O)oc2c3c(c4c(c12)OC(C)(C)CC4)O[C@H](C)[C@@H](C)C3=O ; strain: BaL ; cells: Macrophage + Macrophages ; result: 2.19 µM
CC(C)=CCOc1cc(NC(=S)c2ccsc2C)ccc1Cl ; strain: 3TC-RS (RT-M184I) ; cells: CEM + CEM-SS ; changes: RT-M184I ; result: 0.008 µM
CN1N=C(N)c2cn([C@@H]3O[C@H](COP(=O)(O)O)[C@@H](O)[C@H]3O)c3ncnc1c23 ; strain: RF ; cells: CEM + CEM-SS ; result: 0.03 µM
Cc1occc1C(=S)Nc1ccc(Cl)c(/C=N/OC(C)(C)C)c1 ; strain: RF ; cells: CEM + CEM-SS ; result: 0.049 µM
CC(C)C[C@@H](C(=O)O)N(C)C(=O)c1ccccc1SSc1ccccc1C(=O)N(C)[C@@H](CC(C)C)C(=O)O ; strain: IIIB ; cells: CEM ; result: >100 µM
CC=CCOc1cc(NC(=S)c2ccoc2C)ccc1OC ; strain: NL4-3 ; cells: CEM + CEM-SS ; changes: RT-V106A ; result: 0.6 µM
COC(=O)[C@H](CCCCN)NC(=O)c1ccccc1SSc1ccccc1C(=O)N[C@@H](CCCCN)C(=O)OC ; strain: IIIB ; cells: CEM ; result: 14.9 µM
Cc1occc1C(=S)Nc1ccc(Cl)c(C(=O)OCC2CC2)c1 ; strain: 4XAZT/Y181C (RT D67N K70R Y181C T215Y K219Q) ; cells: CEM + CEM-SS ; changes: RT-D67N K70R Y181C T215Y K219Q ; result: 0.11 µM
CC(C)=CCOc1cc(NC(=S)c2ccoc2C)ccc1Cl ; strain: NL4-3 (RT V106I) ; cells: CEM + CEM-SS ; changes: RT-V106I ; result: 0.1 µM
COC(=O)[C@H](CO)NC(=O)c1ccccc1SSc1ccccc1C(=O)N[C@@H](CO)C(=O)OC ; strain: IIIB ; cells: CEM ; result: 2.34 µM
C=CCOc1cc(NC(=S)c2ccoc2C)ccc1OC ; strain: IIIB ; cells: CEM + CEM-SS ; result: 0.3 µM
O=C(NC(C(=O)O)c1ccccc1)c1ccccc1SSc1ccccc1C(=O)NC(C(=O)O)c1ccccc1 ; strain: IIIB ; cells: CEM ; result: 25 µM
CCCc1cc(=O)oc2c3c(c4c(c12)OC(C)(C)CC4)O[C@@H](C)[C@H](C)[C@@H]3O ; strain: NL4-3 ; cells: CEM + CEM-SS ; changes: RT-V108I ; result: 1.2 µM
C=CCO/N=C/c1cc(NC(=S)c2ccoc2C)ccc1Cl ; strain: NL4-3 ; cells: CEM + CEM-SS ; changes: RT-Y181C ; result: 0.4 µM

2 of the rows above, restated:

structure | strain | cells | changes | result
CN1N=C(N)c2cn([C@@H]3O[C@H](COP(=O)(O)O)[C@@H](O)[C@H]3O)c3ncnc1c23 | RF | CEM + CEM-SS | - | 0.03 µM
Cc1occc1C(=S)Nc1ccc(Cl)c(C(=O)OCC2CC2)c1 | 4XAZT/Y181C (RT D67N K70R Y181C T215Y K219Q) | CEM + CEM-SS | RT-D67N K70R Y181C T215Y K219Q | 0.11 µM

Lines come from different laboratories, so protocols vary. ECn: concentration that inhibits the pathogen or its effect by n%.